# Record: PubChem BioAssay AID624099 (ICCB-Longwood, 2012)
# Test: 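Human genes that papillomavirus E2 requires to repress the HPV18 LCR promoter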 (primary screen)
# Cell system: human C33A cervical carcinoma cells (HPV-negative) stably expressing BPV1 E2 and an HPV18 LCR luciferase reporter
# Knock-down reagent: siRNA pool against human genes, 40 nM
# Timing: 72 h
# Measured: 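Per-well luciferase luminescence, z-scored on each plate against the plate mean and SD with control wells left out, then averaged across three replicate plates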
# Reading the numbers: mean z-score and z-score: higher = stronger reporter signal, weaker E2 silencing
# Active means: 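Hit if mean z-score reaches 2 and two or more of three replicate z-scores also reach 2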
# The whole screen tested about 21,000 reagents; below is a part drawn at random. Of all reagents, 497 (2.4%) were called active. 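Higher z means weaker E2 silencing; only reporter increases were scored, and knock-downs that hurt cell survival may mask genuine repressor factors.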 No sequences are given here.
gene,mean z-score,"z-score, replicate A","z-score, replicate B","z-score, replicate C",activity call
EIF4EBP2 (GeneID 1979),-0.75,-0.23,-1.01,-1.02,inactive
S100A12 (GeneID 6283),-0.76,-0.97,-0.69,-0.62,inactive
RASAL3 (GeneID 64926),0.68,0.64,0.97,0.43,inactive
KRT75 (GeneID 9119),0.19,0.14,0.46,-0.05,inactive
ATP6V0B (GeneID 533),0.62,0.57,0.72,0.57,inactive
ATN1 (GeneID 1822),0.63,0.75,0.58,0.58,inactive
RALYL (GeneID 138046),0.4,0.59,0.45,0.18,inactive
LOC389642 (retired record) (GeneID 389642),0.67,0.62,0.99,0.39,inactive
WDR87 (GeneID 83889),-0.58,-0.55,-0.92,-0.27,inactive
PROB1 (GeneID 389333),1.32,1.41,1.26,1.3,inactive
TGM5 (GeneID 9333),-0.9,-1.13,-0.81,-0.77,inactive
SILC1 (GeneID 150622),0.08,-0.44,0.93,-0.24,inactive
IL33R (GeneID 9173),0.5,0.34,0.6,0.55,inactive
GGCT (GeneID 79017),-1.54,-1.57,-1.61,-1.46,inactive
AADAT (GeneID 51166),-0.12,-0.12,-0.22,-0.01,inactive
RAP2B (GeneID 5912),-0.16,-0.11,0.03,-0.41,inactive
TMEM240 (GeneID 339453),0.94,0.86,1.21,0.76,inactive
LOC402637 (retired record) (GeneID 402637),-0.12,-0.35,0.29,-0.3,inactive
SLC32A1 (GeneID 140679),0.91,0.78,0.68,1.27,inactive
ST20-AS1 (GeneID 283687),0.56,0.43,0.78,0.47,inactive
PRKDC (GeneID 5591),0.29,0.05,0.44,0.38,inactive
CD22 (GeneID 933),1.49,1.47,1.51,1.51,inactive
ALG2 (GeneID 85365),-0.31,-0.37,-0.24,-0.33,inactive
KLF10 (GeneID 7071),-0.34,-0.37,-0.36,-0.3,inactive
SSPN (GeneID 8082),0.11,0.11,0.13,0.1,inactive
CALCOCO1 (GeneID 57658),0.91,1.14,1.19,0.39,inactive
MRPL43 (GeneID 84545),-1.89,-2.02,-1.81,-1.84,inactive
SLC5A5 (GeneID 6528),-0.99,-1.42,-1.02,-0.53,inactive
TRIT1 (GeneID 54802),-1.05,-0.96,-0.99,-1.19,inactive
ATXN10 (GeneID 25814),1.07,0.99,1.14,1.08,inactive
BICDL2 (GeneID 146439),0.11,0.2,-0.17,0.31,inactive
TIMM8B (GeneID 26521),-0.57,-0.12,-0.57,-1.01,inactive
ZCRB1 (GeneID 85437),0.14,0.03,0.14,0.27,inactive
SGCD (GeneID 6444),-0.47,-0.38,-0.36,-0.68,inactive
RPRD1B (GeneID 58490),0.32,0.72,0.29,-0.04,inactive
H3C8 (GeneID 8355),-0.77,-0.41,-0.72,-1.19,inactive
GBP2 (GeneID 2634),0.71,0.95,0.63,0.55,inactive
GDF15 (GeneID 9518),-0.78,-0.94,-0.68,-0.71,inactive
LOC401005 (retired record) (GeneID 401005),-0.03,0.05,0.09,-0.25,inactive
TIAM1-AS1 (GeneID 150051),0.16,0.04,0.11,0.32,inactive
CSPG5 (GeneID 10675),0.3,0.48,0.14,0.28,inactive
OVGP1 (GeneID 5016),-0.72,0.01,0.08,-2.26,inactive
NXPE4 (GeneID 54827),-1.3,-1.42,-1.42,-1.06,inactive
PAN3 (GeneID 255967),0.79,1.04,0.61,0.73,inactive
TXNDC17 (GeneID 84817),1.34,1.36,1.1,1.56,inactive
ROBO2 (GeneID 6092),0.19,0.36,0.09,0.13,inactive
ARHGEF4 (GeneID 50649),0.65,0.65,0.59,0.72,inactive
BTN2A2 (GeneID 10385),-0.45,-0.38,-0.5,-0.47,inactive
CFAP44 (GeneID 55779),0.81,0.84,0.71,0.87,inactive
SYPL1 (GeneID 6856),-0.41,-0.2,-0.59,-0.45,inactive
NDUFS3 (GeneID 4722),0.41,-0.01,0.56,0.67,inactive
PCOLCE (GeneID 5118),2.11,1.92,2,2.42,active
DRD3 (GeneID 1814),0.06,-0.09,0.16,0.12,inactive
HDAC1 (GeneID 3065),0.52,0.32,0.59,0.66,inactive
MTHFS (GeneID 10588),-1.24,-1.32,-1.19,-1.21,inactive
DISP1 (GeneID 84976),0.69,0.61,0.64,0.83,inactive
LMBRD1 (GeneID 55788),-0.09,0.03,-0.1,-0.2,inactive

7 consecutive reagents already listed, for reference:
gene,mean z-score,"z-score, replicate A","z-score, replicate B","z-score, replicate C",activity call
TIAM1-AS1 (GeneID 150051),0.16,0.04,0.11,0.32,inactive
CSPG5 (GeneID 10675),0.3,0.48,0.14,0.28,inactive
OVGP1 (GeneID 5016),-0.72,0.01,0.08,-2.26,inactive
NXPE4 (GeneID 54827),-1.3,-1.42,-1.42,-1.06,inactive
PAN3 (GeneID 255967),0.79,1.04,0.61,0.73,inactive
TXNDC17 (GeneID 84817),1.34,1.36,1.1,1.56,inactive
ROBO2 (GeneID 6092),0.19,0.36,0.09,0.13,inactive
